According to article PMC11320581 (ACS Infectious Diseases, 2024):

Test system: N. gonorrhoeae topoisomerase IV carrying ParC^S87N, ParC^E91G, or ParC^S87N/E91G
Conditions: 100 μM SPT, vs wild-type

C[C@@H]1CN2c3c(cc4c(N5C(=O)OC[C@@H]5C)noc4c3F)CC3(C(=O)NC(=O)NC3=O)[C@H]2[C@H](C)O1 [zoliflodacin, Zoliflodacin]
fold reduction of double-stranded DNA scission by fluoroquinolone resistance mutations in topoisomerase IV: 1.6- to 3 fold
